Anti-infective test results gathered from many reports (values: NIAID ChemDB through PubChem).

Common to all: growth or infection tests; agent: Mycobacterium tuberculosis

ECn: concentration that inhibits the pathogen or its effect by n%. MIC bound comes from a single tested concentration. A number after MIC or MFC names an inhibition level or a share of isolates. Blank or dashed fields: not listed here. Neighbouring rows are from separate reports. Fold resistance has wild type as its base. Percent inhibition refers to the dose given; in toxicity tests it is the harm to the cells.

smiles,cells,read by,tested at,mutations,measure,conditions,strain or isolate,result
CCOC(=O)c1ccc2nc(-c3cncc(-c4ccc(F)cc4)c3)[nH]c2c1,,resazurin / fluorescence,,,EC90,,H37Rv,>100 µM
O=[N+]([O-])c1cn2c(n1)OC[C@@H](OCc1ccc(OC(F)(F)F)cc1)C2,,,,,MIC,,CDC1551,0.05 µg/mL
CC(NNC(=O)c1ccncc1)c1ccc(F)cc1,,,,,MIC,,H37Rv (thiacetazone-resistant),>31.25 µg/mL
O=C(Nc1ccccc1)c1ccccc1OP(=O)(Oc1ccccc1)c1ccccc1,,,,,MIC,14 d,My 331/88,250 µM
CCc1ccc([C@H]2C[C@@H](C(F)(F)F)n3ncc(C(=O)NCc4ccc5c(c4)OCO5)c3N2)cc1,,fluorescence,,MmpL3: Phe255Leu,fold resistance,,H37Rv,15
O=c1oc2cc(Cl)ccc2c(=O)n1-c1cccc(Cl)c1,,,,,MIC,,CNCTC MY331/88,4 µM
O=c1[nH]c2c([N+](=O)[O-])cccc2c(O)c1N=Nc1ccc([N+](=O)[O-])cc1,,resazurin,6.25 µg/mL,,inhibition,,H37Rv,65%
Cc1ccc(C(=O)/C=C/c2ccccc2)cc1,,resazurin,,,MIC,14 d,H37Rv,32 µg/mL
COC(=O)c1nc2c(n1NC(C)=O)CCCC2,,BACTEC,12.5 µg/mL,,inhibition,,H37Rv,18%
O=c1oc2ccc(Cl)cc2c(=O)n1-c1ccc(Cl)c(Cl)c1,,,,,MIC,,CNCTC MY331/88,4 µM
Fc1ccc(-c2c(C(c3ccccc3)n3ccnc3)cnn2-c2ccccc2)cc1,,,,,MIC50,,ATCC 35822 (isoniazid-resistant),≥100 µM
O=C1COCC(=O)OCCOCCSCCOCCO1,,BACTEC,12.5 µg/mL,,inhibition,,H37Rv,-14%
COc1ccc(C(=O)/C=C/c2ccc(F)cc2)c(F)c1,,MTT,,,MIC,,H37Rv,32 µg/mL
NCC[C@H](O)C(=O)N[C@@H]1C[C@H](N)[C@@H](O[C@H]2O[C@H](CN)[C@@H](O)[C@H](O)[C@H]2O)[C@H](O)[C@H]1O[C@H]1O[C@H](CO)[C@@H](O)[C@H](N)[C@H]1O,,resazurin / fluorescence,,,MIC,,H37Rv,>100 µM
NC(=O)c1cnccn1,,,,,MIC,,W11053/NIACIN+,512 µg/mL
NNC(=O)c1ccncc1,,,,,MIC,,Isolate 3,8 µg/mL
CCc1cc(C(N)=S)ccn1,,,,,MIC,,131-4,0.63 µg/mL
O=C(O)COc1ccc(C(=O)/C(SS/C(C(=O)c2ccc(OCC(=O)O)c(Cl)c2Cl)=C2\C=C(c3ccc(Br)cc3)SS2)=C2/C=C(c3ccc(Br)cc3)SS2)c(Cl)c1Cl,,BACTEC,12.5 µg/mL,,inhibition,,H37Rv,2%
O=C(/C=C/c1ccccc1)c1ccc(F)cc1,,MTT,,,MIC,21 d,H37Rv,32 µg/mL
CO[C@H]1/C=C/O[C@@]2(C)Oc3c(C)c(O)c4c(O)c(c(/C=N/N5CCN(C)CC5)c(O)c4c3C2=O)NC(=O)/C(C)=C\C=C\[C@H](C)[C@H](O)[C@@H](C)[C@@H](O)[C@@H](C)[C@H](OC(C)=O)[C@@H]1C,,,,,MIC,,Isolate 4,>32 µg/mL
O=C1c2ccccc2OP(=O)(c2ccccc2)N1c1ccccc1,,,,,MIC,7 d,My 331/88,>500 µM
O=C(O)c1nn(Cc2ccc(Br)cc2Br)c2ccccc12,,,,,MIC,,H37Rv,12.5 µg/mL
Fc1ccc(-n2ncc(C(c3ccccc3)n3ccnc3)c2-c2ccccc2)c(F)c1,,,,,MIC90,,ATCC 35820 (streptomycin-resistant),≥100 µM
Cn1c(=O)c(N=Nc2ccc(Cl)c(Cl)c2)c(O)c2ccccc21,,resazurin,6.25 µg/mL,,inhibition,,H37Rv,10%
O=C(NNCc1ccccc1F)c1ccncc1,,,,,MIC,,Rifampicin-resistant,0.39 µg/mL
CCOC(=O)c1ccc2c(c1)nc(-c1ccc([N+](=O)[O-])cc1)n2CCN1CCCOC1,,resazurin / fluorescence,,,MIC,,H37Rv,>100 µM
COc1ccc(/C=N/NC(=O)C(=O)N/N=C/c2ccc(OC)c(OC)c2)cc1OC,,BACTEC,,,MIC,,H37Rv,≥12.5 µg/mL
C[C@H]1COc2c(N3CCN(C)CC3)c(F)cc3c(=O)c(C(=O)O)cn1c23,,,,,MIC,,Erdman,0.25 µg/mL
Fc1ccccc1-c1c(C(c2ccccc2)n2ccnc2)cnn1-c1ccccc1,,,,,MIC50,,ATCC 35828 (pyrazinamide-resistant),≥100 µM
O=[N+]([O-])c1ccc(C2=NOC(c3ccc(N4CCN(Cc5ccccc5)CC4)cc3)C2)o1,,,,,MIC,,UT18,0.0008 µg/mL
Cn1c2c(c(=O)n(C)c1=O)C(C(=O)O)CC(=O)N2,,resazurin,6.25 µg/mL,,inhibition,,H37Rv,-16%
C[C@]1(COc2ccc(N3CCC(Oc4ccc(OC(F)(F)F)cc4)CC3)cc2)Cn2cc([N+](=O)[O-])nc2O1,,,,,MIC,,UT18,0.024 µg/mL
CCCCc1c(C#N)c(=O)n2c(N)c(C#N)cnc2c1SC,,BACTEC,6.25 µg/mL,,inhibition,,H37Rv,0%
Fc1ccc(-n2ncc(C(c3ccccc3)n3ccnc3)c2-c2ccccc2)cc1,,,,,MIC50,,ATCC 35828 (pyrazinamide-resistant),≥100 µM
COc1ccc(C(=O)/C=C/c2ccccc2Cl)c(F)c1,,MTT,,,MIC,,H37Rv,32 µg/mL
Fc1ccccc1-n1ncc(C(c2ccccc2)n2ccnc2)c1-c1ccccc1,,,,,MIC50,,ATCC 35822 (isoniazid-resistant),≥100 µM
Cc1ccc2c(=O)n(-c3ccccc3)c(=O)oc2c1,,,,,MIC,,CNCTC MY331/88,62 µM
CO[C@H]1/C=C/O[C@@]2(C)Oc3c(C)c(O)c4c(O)c(c5c(c4c3C2=O)NC2(CCN(CC(C)C)CC2)N=5)=NC(=O)/C(C)=C\C=C\[C@H](C)[C@H](O)[C@@H](C)[C@@H](O)[C@@H](C)[C@H](OC(C)=O)[C@@H]1C,,,,,MIC,,CSU15,≤0.125 µg/mL
O=C(Nc1ccc(Br)cc1)c1cc(Cl)ccc1OP(=O)(Oc1ccccc1)Oc1ccccc1,,,,,MIC,14 d,My 331/88,8 µM
Clc1ccccc1C(c1ccccc1)(c1ccccc1)n1ccnc1,,,,,MIC90,,ATCC 35820 (streptomycin-resistant),≥100 µM
O=C(NNCc1ccccc1)c1ccncc1,,,,,MIC,,Erdman,0.39 µg/mL
CC(=O)SC[C@H](C)C(=O)N1CCCC1C(=O)NC(Cc1ccccc1)C(=O)O,,resazurin,,,MIC bound,,H37Rv,>6.25 µg/mL
CCOC(=O)c1ccc2c(c1)nc(-c1ccc(C(=O)O)cc1)n2CCN1CCCOC1,,resazurin / fluorescence,,,MIC,,H37Rv,>100 µM
O=C(Nc1ccc(C(F)(F)F)cc1)c1cc(Cl)ccc1OP(=O)(c1ccccc1)c1ccccc1,,,,,MIC,21 d,Praha 4,1 µM
Clc1ccc(-c2c(C(c3ccccc3)n3ccnc3)cnn2-c2ccccc2)cc1,,,,,MIC90,,ATCC 35822 (isoniazid-resistant),≥100 µM
CCOC(=O)c1ccc2nc(-c3ccc(Br)cc3)[nH]c2c1,,resazurin / fluorescence,,,EC90,,H37Rv,>100 µM
O=c1[nH]c2c([N+](=O)[O-])cccc2c(O)c1N=Nc1cccc([N+](=O)[O-])c1,,resazurin,,,MIC,,H37Rv,<6.25 µg/mL
CN[C@@H]1[C@H](O[C@H]2[C@H](O[C@H]3[C@H](O)[C@@H](O)[C@H](N=C(N)N)[C@@H](O)[C@@H]3N=C(N)N)O[C@@H](C)[C@]2(O)C=O)O[C@@H](CO)[C@H](O)[C@H]1O,,,,,MIC,,Isolate 9,8 µg/mL
CC1CN(c2c(F)cc3c(=O)c(C(=O)O)cn(C4CC4)c3c2F)CC(C)N1,,,,,MIC,,CSU26,0.25 µg/mL
CN[C@@H]1[C@H](O[C@H]2[C@H](O[C@H]3[C@H](O)[C@@H](O)[C@H](N=C(N)N)[C@@H](O)[C@@H]3N=C(N)N)O[C@@H](C)[C@]2(O)C=O)O[C@@H](CO)[C@H](O)[C@H]1O,,,,,MIC,,9445 (streptomycin-S isoniazid-R),<4 µg/mL
C[N+](C)(C)CC(=O)N/N=C/c1ccc(O)cc1O.[Cl-],,BACTEC,,,MIC,,H37Rv,≥12.5 µg/mL
Fc1ccc(-c2c(C(c3ccccc3)n3ccnc3)cnn2-c2ccc(F)cc2F)cc1,,,,,MIC50,,ATCC 35822 (isoniazid-resistant),≥100 µM
COc1ccc(N=Nc2c(O)c3c(Cl)ccc(Cl)c3[nH]c2=O)cc1,,resazurin,,,MIC,,H37Rv,>6.25 µg/mL
COc1ccc2c(c1)n([O-])c1cc(C#N)ccc1[n+]2=O,,,,,MIC,,TAC-R,12.5 µg/mL
C/C(=N\NC(=O)c1ccncc1)c1ccccc1F,,,,,MIC,,H37Rv (rifampin-resistant),1 µg/mL
O=C1c2cc(Cl)ccc2OP(=O)(c2ccccc2)N1c1ccc(C(F)(F)F)cc1,,,,,MIC,14 d,7357/1998,1 µM
C[C@]12CCC(=O)C=C1CC[C@@H]1[C@@H]2C(O)C[C@@]2(C)[C@H]1CC[C@]2(O)C(=O)COC(=O)c1ccc([N+](=O)[O-])cc1Cl,,BACTEC,12.5 µg/mL,,inhibition,,H37Rv,0%
CCOC(=O)c1ccc2nc(-c3ccc(O)c(OC)c3)[nH]c2c1,,resazurin / fluorescence,,,EC50,,H37Rv,83.66 µM
O=C(/C=C/c1ccc(F)cc1Cl)c1ccc(F)cc1,,MTT,,,MIC,7 d,H37Rv,32 µg/mL
O=C(Nc1ccccc1)c1ccccc1OP(=O)(c1ccccc1)c1ccccc1,,,,,MIC,14 d,My 331/88,125 µM
O=C(N/N=C/c1cccc(C(F)(F)F)c1)c1ccncc1,,,,,MIC,,H37Rv (rifampin-resistant),1 µg/mL
O=C([O-])[C@H]([O-])[C@@H]([O-])C(=O)[O-].O=C([O-])[C@H]([O-])[C@@H]([O-])C(=O)[O-].[Na+].[Na+].[Na+].[Na+].[O]=[V+2].[O]=[V+2],,BACTEC,,,MIC,,H37Rv,≥12.5 µg/mL
Cc1cccc(N=Nc2c(O)c3cccc([N+](=O)[O-])c3[nH]c2=O)c1,,resazurin,6.25 µg/mL,,inhibition,,H37Rv,95%
Clc1ccc(-n2ncc(C(c3ccccc3)n3ccnc3)c2-c2ccccc2)c(Cl)c1,,,,,MIC90,,ATCC 35837 (ethambutol-resistant),>100 µM
CO[C@@]12[C@H](COC(N)=O)C3=C(C(=O)C(C)=C(N)C3=O)N1C[C@H]1[C@@H]2N1C,,,,,MIC,,KM-R,0.8 µg/mL
O=C(O)c1cn(C2CC2)c2c(F)c(N3CCSCC3)c(F)cc2c1=O,,,,,MIC,,CSU28,2 µg/mL
COc1ccc2c(=O)oc3c(OC)cc(CCN(C)C)c4c(=O)oc1c2c34,,BACTEC,,,MIC bound,,H37Rv,≤128 µg/mL
O=C(/C=C/c1ccc(F)cc1Cl)c1ccccc1,,resazurin,,,MIC,14 d,H37Rv,32 µg/mL
CS(=O)(=O)N1C=CC2C(C=C1)C1(c3ccccc3)OC2(c2ccccc2)c2ccccc21,,BACTEC,,,MIC bound,,H37Rv,>12.5 µg/mL
C/C(=N\NC(=O)c1ccncc1)c1ccc(F)cc1,Macrophages,colony count,,,EC50,inside macrophages,Erdman,<0.038 µg/mL
CC1=C(C(=O)Nc2ccc(Cl)c(C(=O)OC(C)C)c2)SCCO1,,BACTEC,12.5 µg/mL,,inhibition,,H37Rv,11%
O=C1c2cc(Br)ccc2OP(=O)(c2ccccc2)N1c1ccc(C(F)(F)F)cc1,,,,,MIC,14 d,Praha 4,1 µM
CC(=O)/C=N/NC(=O)C(O)C(O)C(O)C(O)CO,,BACTEC,,,MIC bound,,H37Rv,>12.5 µg/mL
O=c1oc2cc(Cl)ccc2c(=O)n1-c1ccc(Br)cc1,,,,,MIC,,CNCTC MY331/88,8 µM
CCOC(=O)n1[nH][nH]c2c(c(=O)n(C)c(=O)n2C)n1C(=O)OCC,,BACTEC,,,MIC bound,,H37Rv,≤128 µg/mL
CCOC(=O)c1ccc2c(c1)nc(-c1ccc(N3CCOCC3)cc1)n2CCN1CCCOC1,,resazurin / fluorescence,,,EC90,,H37Rv,>100 µM
O=c1c(Br)cc2c(-c3ccccc3)c3cc(Br)c(O)c(Br)c3oc-2c1Br,,BACTEC,12.5 µg/mL,,inhibition,,H37Rv,7%
CC(=O)c1ccc(N=Nc2c(O)c3cccc([N+](=O)[O-])c3[nH]c2=O)cc1,,resazurin,,,MIC,,H37Rv,<6.25 µg/mL
O=C1c2c(O)ccc(O)c2C(=O)c2c(NCCCO)ccc(NCCCO)c21,,BACTEC,12.5 µg/mL,,inhibition,,H37Rv,40%
CCOC(=O)c1ccc2nc(-c3ccc(Cl)cc3)[nH]c2c1,,resazurin / fluorescence,,,MIC,,H37Rv,>100 µM

Again, the opening 4 rows:

smiles,cells,read by,tested at,mutations,measure,conditions,strain or isolate,result
CCOC(=O)c1ccc2nc(-c3cncc(-c4ccc(F)cc4)c3)[nH]c2c1,,resazurin / fluorescence,,,EC90,,H37Rv,>100 µM
O=[N+]([O-])c1cn2c(n1)OC[C@@H](OCc1ccc(OC(F)(F)F)cc1)C2,,,,,MIC,,CDC1551,0.05 µg/mL
CC(NNC(=O)c1ccncc1)c1ccc(F)cc1,,,,,MIC,,H37Rv (thiacetazone-resistant),>31.25 µg/mL
O=C(Nc1ccccc1)c1ccccc1OP(=O)(Oc1ccccc1)c1ccccc1,,,,,MIC,14 d,My 331/88,250 µM